# From PubChem BioAssay AID1347084 (National Center for Advancing Translational Sciences (NCATS), 2019)
# The list shows a part of the results, in another mix than the full data. Records with an inconclusive call do not appear. Active and inactive are the calls of the source. Calls follow the shape of the full dose curve.
# Assay: qHTS for Inhibitors of the Functional Ribonucleoprotein Complex (vRNP) of Lymphocytic Choriomeningitis Arenaviruses (LCMV): LCMV Confirmatory Screen - GLuc reporter signal
# Conditions: LCMV minigenome vRNP, Gaussia luciferase reporter
structure (smiles),measurement,value
Cc1cc([N+](=O)[O-])cc([N+](=O)[O-])c1O,Potency,active: 39.5 µM
